Measured values from PubChem BioAssay AID504832 (National Center for Advancing Translational Sciences (NCATS), 2011).
Only a part is listed here, and it is no random draw. Results filed as inconclusive are left out. Active and inactive are the calls of the source. Calls follow the shape of the dose curve; as a rule, active = well fitted inhibition curve with a large enough effect; inconclusive = small, poorly fitted or top-dose-only effect, or another doubt; inactive = no such curve, though single readings can be large or run the other way.

assay: Primary qHTS for delayed death inhibitors of the malarial parasite plastid, 48 hour incubation; settings: P. falciparum luciferase growth in erythrocytes
Source text: The goal of this screen is to discover new antimalarial compounds that act by inhibiting the development of the apicoplast in the malarial parasite Plasmodium falciparum. The biochemical processes that make this organelle essential for erythrocytic stage parasites are not well understood. However, antibiotics such as azithromycin and tetracycline, which target the apicoplast translational machinery, have a potent antimalarial effect.
We have developed a cell-based assay that measures parasite growth based on the expression of an integrated copy of a firefly luciferase reporter. To detect small molecules that cause this "delayed death" phenotype, erythrocytes infected with the luciferase-expressing parasites were incubated with compounds for either one or two generations, corresponding to 48 and 96 hours, respectively. Compounds that inhibit parasite growth in the second generation, but not the first, should be enriched in antimalarials that target the apicoplast. Growth inhibition is detected by a decrease in luciferase activity.
Assay Provider: David Fidock and Eric Ekland, Columbia University
Keywords: NIH Roadmap, MLPCN, MLI, MLSMR, qHTS, NCGC, qHTS, malaria, luciferase, viability
Four microliters of culture medium (RPMI 1640 with 0.5% w/v Albumax (GIBCO), 24 mM sodium bicarbonate and 10 ug/mL gentamycin) were dispensed by a Multi-drop Combi into white solid 1536-well plates (Grenier) and 23 nL compound was added by a pin tool. Four microliters of infected erythrocytes (2% hematocrit, 0.1% parasitemia final concentration) in culture medium were dispensed and the plates incubated for 48 hours at 37 C in 5% CO2. Two microliters of luciferase detection reagent was added and luminescence was detected by a ViewLux (PerkinElmer) reader.
Potency is read from the fitted curve at half-maximal effect.

SMILES	Potency
CN(C)c1cccc(C(=O)NCC2(N3CCCCC3)CCCCC2)c1	active: 3.7 µM
CCCCOc1ccc(C(=O)NCC2(N3CCOCC3)CCCCC2)cc1	active: 13.1 µM
O=C(NCC1(N2CCCCC2)CCCCC1)c1ccc(Cl)s1	active: 10.4 µM
COc1cccc(C(=O)N(c2cc(C)cc(C)c2)C2CCN(C(=O)OC(C)(C)C)CC2)c1	active: 10.4 µM
CC(C)(C)OC(=O)N1CCC(N(C(=O)c2ccccc2)c2ccc(Cl)cc2)CC1	active: 11.7 µM
